Pooled drug test results. Numbers come from NIAID ChemDB, via PubChem.

All rows: target-level tests

An empty or dashed field is not shown. Inhibition is in % at the dose shown (toxicity tests: loss of growth or viability). a–b is a range or a potency band. Lines come from different laboratories, so protocols vary. ICn is the concentration giving n% inhibition.

compound | protein | measure | agent | method | strain or isolate | dose | value
C[C@H]1CCC[C@H](C)C1n1c(-c2ccc[nH]2)nc2cc(C(=O)NC3(C(=O)Nc4ccc(/C=C/C(=O)O)cc4)CCCC3)ccc21 | NS5B polymerase | IC50 | Hepatitis C virus | - | - | - | 0.5–5 µM
CCn1c(-c2ccccc2OCc2ccccc2)nc2ccccc21 | NS5B RdRp activity | inhibition | Hepatitis C virus | - | 1b | 100 µM | 22.4%
CC(C)CC(=O)Nc1cnn2c(C3CCCCC3)c(-c3ccc(OCc4ccccc4)cc3)cnc12 | RNA-dependent RNA polymerase | IC50 | Hepatitis C virus | - | - | - | >10 µM
O=C(O)C(Cc1ccccc1)N(Cc1ccc(-c2cccc(F)c2)s1)C(=O)c1ccc(Cl)cc1Cl | RNA-dependent RNA polymerase | IC50 | Hepatitis C virus | - | - | - | <5 µM
O=C(NC1(C(=O)Nc2cc(C(=O)O)[nH]n2)CCCC1)c1ccc2c(c1)nc(-c1ccoc1)n2C1CCCCC1 | NS5B polymerase | IC50 | Hepatitis C virus | - | - | - | 0.5–5 µM
Clc1ccc(COc2ccccc2-c2nc3ccccc3[nH]2)cc1 | NS5B RdRp activity | inhibition | Hepatitis C virus | - | 1b | 100 µM | 0%
CCCN(NC(=O)[C@H]1C[C@@H](OCc2ccccc2)CN1C(=O)[C@@H](NC(=O)[C@@H](OC(=O)[C@@H](CC(=O)O)NC(=O)[C@H](CC(=O)O)NC(C)=O)[C@H](C)CC)C(C)C)C(=O)NCc1ccc2c(c1)OCO2 | Serine protease | IC50 | Hepatitis C virus | - | - | - | 0.5 µM
O=C(NC1(C(=O)Nc2ccc(-c3ccc(C(=O)O)o3)cc2)CCCC1)c1ccc2c(c1)nc(-c1ccoc1)n2C1CCCCC1 | NS5B polymerase | IC50 | Hepatitis C virus | - | - | - | <0.5 µM
Nc1nc(=O)c2ncn(COCCO)c2c(=O)[nH]1 | Nonstructural protein 3 NTPase/helicase | IC50 | Hepatitis C virus | helicase activity | - | - | >500 µM
COc1cc(C)c(S(=O)(=O)N(Cc2ccc(C)cc2)[C@@H](Cc2ccccc2)C(=O)O)c(C)c1C | RNA-dependent RNA polymerase | IC50 | Hepatitis C virus | - | - | - | 5–20 µM
C=CCC(NC(=O)C(=O)C(=O)C(CC=C)NC(=O)[C@H](CC1CCCCC1)NC(=O)[C@@H](NC(=O)[C@H](CC(C)C)NN1CCCCC1)[C@@H](C)CC)C(=O)O | NS3/NS4A serine protease | IC50 | Hepatitis C virus | - | - | - | 0.05 µM
O=C(O)[C@H](Cc1ccccc1)N(Cc1ccc(-c2ccccc2Cl)o1)C(=O)c1ccc(Cl)cc1Cl | RNA-dependent RNA polymerase | IC50 | Hepatitis C virus | - | - | - | <5 µM
CC(NC(=O)c1ccc2c(c1)nc(-c1ccoc1)n2C1CCCCC1)C(=O)Nc1cc(CC(=O)O)ccc1O | NS5B polymerase | IC50 | Hepatitis C virus | - | - | - | 0.5–5 µM
O=C1c2ccccc2C(=O)c2cc(CN(c3ccc(Cl)cc3Cl)[C@@H](Cc3ccccc3)C(=O)O)ccc21 | RNA-dependent RNA polymerase | IC50 | Hepatitis C virus | - | - | - | <5 µM
CCCC(NC(=O)[C@@H]1C[C@@H](OCc2ccccc2)CN1C(=O)[C@@H](NC(=O)[C@@H](NC(=O)[C@@H](CCC(=O)O)NC(=O)[C@H](CC(=O)O)NC(C)=O)[C@@H](C)CC)C(C)C)C(=O)N1Cc2ccccc2C[C@H]1C(=O)O | NS3 protease/NS4A cofactor | IC50 | Hepatitis C virus | - | - | - | 8 µM
Cc1ccc(S(=O)(=O)NC(=O)[C@H](CC(C)C)NC(=O)[C@@H]2C[C@H](n3cc(-c4ccccc4)nn3)CN2C(=O)[C@@H](NC(=O)C(=O)OC(C)(C)C)C(C)(C)C)cc1 | Nonstructural protein 3/4A | IC50 | Hepatitis C virus | FRET | - | - | >100 µM
CCN(CC)c1ncc(CN(C(=O)c2ccc(Cl)cc2Cl)[C@@H](Cc2ccccc2)C(=O)O)s1 | RNA-dependent RNA polymerase | IC50 | Hepatitis C virus | - | - | - | <5 µM
C=CCC(NC(=O)[C@@H](NC(=O)[C@@H](NC(=O)[C@H](CC(C)C)NC(=O)[C@@H](CCC(=O)O)NC(=O)[C@H](CC(=O)O)NC(C)=O)[C@@H](C)CC)C1CCCCC1)C(=O)O | NS3/NS4A serine protease | IC50 | Hepatitis C virus | - | - | - | 25.6 µM
C[C@H](Cn1cnc2c(N)ncnc21)OCP(=O)(O)O | HBsAg | IC50 | Hepatitis B virus | ELISA | HepG 2.2.15 | - | >1740 µM
Nc1nc2c(ccn2[C@@H]2O[C@H](COP(=O)(O)OP(=O)(O)OP(=O)(O)O)C[C@H]2O)c(=O)[nH]1 | NS5B delta .21 | IC50 | Hepatitis C virus | - | - | - | 7.2 µM
C[C@H]1CCC[C@H](C)C1n1c(-c2ccccn2)nc2cc(C(=O)NC3(C(=O)Nc4ccc(/C=C/C(=O)O)cc4)CCCC3)ccc21 | NS5B polymerase | IC50 | Hepatitis C virus | - | - | - | 0.5–5 µM
Cc1ccc(COc2ccccc2-c2nc3ccccc3[nH]2)cc1 | NS5B RdRp activity | inhibition | Hepatitis C virus | - | 1b | 100 µM | 0%
C=CCC(NC(=O)[C@H](C)NC(=O)[C@@H](NC(=O)[C@@H](NC(=O)[C@H](CC(=O)O)NC(=O)[C@H](CCC(=O)O)NC(C)=O)C(C)C)C(C)C)C(=O)C(=O)C(=O)N[C@@H](C)C(N)=O | NS3/NS4A serine protease | IC50 | Hepatitis C virus | - | - | - | 6.5 µM
CCCN(NC(=O)[C@@H]1C[C@@H](OCc2ccccc2)CN1C(=O)[C@@H](NC(=O)[C@H]([C@@H](C)CC)N(S)C(=O)[C@@H](CCC(=O)O)NC(=O)[C@H](CC(=O)O)NC(C)=O)C(C)C)C(=O)NCc1ccccc1 | NS3 protease/NS4A cofactor | IC50 | Hepatitis C virus | - | - | - | 5 µM
C=C[C@H]1C[C@@]1(NC(=O)c1ccc2c(c1)nc(-c1ccoc1)n2C1CCCCC1)C(=O)Nc1ccc(/C=C/C(=O)O)cc1 | NS5B polymerase | IC50 | Hepatitis C virus | - | - | - | <0.5 µM
c1ccc(COc2ccc(-c3cnc4c(-c5nn[nH]n5)cnn4c3N3CCNCC3)cc2)cc1 | RNA-dependent RNA polymerase | IC50 | Hepatitis C virus | - | - | - | >10 µM
CO[C@@H]1[C@H](O)[C@@H](COP(=O)(O)OP(=O)(O)OP(=O)(O)O)O[C@H]1n1ccc2c(N)ncnc21 | NS5B delta .21 | IC50 | Hepatitis C virus | - | - | - | 11 µM
C=CCC(NC(=O)[C@H](C)NC(=O)[C@@H](NC(=O)[C@@H](NC(=O)[C@H](CC(=O)O)NC(=O)[C@H](CCC(=O)O)NC(C)=O)C(C)C)C(C)C)C(=O)C(=O)C(=O)N[C@@H](C)C(=O)O | NS3/NS4A serine protease | IC50 | Hepatitis C virus | - | - | - | 0.44 µM
O=C(O)/C=C/c1ccc(NC(=O)C2(NC(=O)c3ccc4c(c3)nc(-c3ccccc3)n4C3CCCC3)CCCC2)cc1 | NS5B polymerase | IC50 | Hepatitis C virus | - | - | - | 0.5–5 µM
CO[C@@H]1[C@H](O)[C@@H](COP(=O)(O)OP(=O)(O)OP(=O)(O)O)O[C@H]1n1cnc2c(N)ncnc21 | NS5B delta .21 | IC50 | Hepatitis C virus | - | - | - | 4.7 µM
O=C(O)c1cc2nccc(-c3ccc(-c4ccccc4)cc3)n2n1 | RNA-dependent RNA polymerase | IC50 | Hepatitis C virus | - | - | - | >10 µM
CCn1c(-c2ccccc2OCc2ccc(C)cc2)nc2ccccc21 | NS5B RdRp activity | inhibition | Hepatitis C virus | - | 1b | 100 µM | 24.2%
O=C(O)c1cc2nc(-c3ccoc3)c(C3CCCCC3)c(=O)n2[nH]1 | RNA-dependent RNA polymerase | IC50 | Hepatitis C virus | - | - | - | <1 µM
CC[C@H](C)[C@H](NC(=O)[C@H](CC(C)C)NC(=O)[C@@H](CCC(=O)O)NC(=O)[C@H](CC(=O)O)NC(C)=O)C(=O)N[C@H](C(=O)N[C@@H](CS)C(=O)O)C1CCCCC1 | NS3/NS4A serine protease | IC50 | Hepatitis C virus | - | - | - | 20.5 µM
FC(F)(F)c1cccc(COc2ccc(-c3cnc4c(-c5nn[nH]n5)cnn4c3C3CCCCC3)cc2)c1 | RNA-dependent RNA polymerase | IC50 | Hepatitis C virus | - | - | - | 1–10 µM
O=C(O)/C=C/c1ccc(NC(=O)C(Cc2ccccc2)NC(=O)c2ccc3c(c2)nc(-c2ccoc2)n3C2CCCCC2)cc1 | NS5B polymerase | IC50 | Hepatitis C virus | - | - | - | 0.5–5 µM